Results: patent publication US20240109955A1 (published 2024)

Key:
Assay in all cases: cell-based or functional assay
[1] = target: SARS-CoV-2 spike protein, Omicron variant BA.4/5 (SARS-CoV-2)
[2] = target: SARS-CoV-2 spike protein, Omicron variant BQ.1 (SARS-CoV-2)
[3] = target: SARS-CoV-2 spike protein, Omicron variant BQ.1.1 (SARS-CoV-2)
[4] = target: SARS-CoV-2 spike protein, Omicron variant BA.2.75.2 (SARS-CoV-2)
[5] = target: SARS-CoV-2 spike protein, Omicron variant XBB (SARS-CoV-2)
[6] = target: SARS-CoV-2 spike protein, Delta variant (SARS-CoV-2)
[7] = target: SARS-CoV-2 spike protein, Omicron variant (B.1.1.529) (SARS-CoV-2, UniProt P0DTC2 14-1273)
[8] = target: SARS-CoV-2 spike protein, Omicron sublineage BA.1.1 (R346K) (SARS-CoV-2, UniProt P0DTC2 14-1273)

Binder | IC50, pseudovirus neutralization [1] [ng/mL] | IC80, pseudovirus neutralization [1] [ng/mL] | IC50, pseudovirus neutralization [2] [ng/mL] | IC80, pseudovirus neutralization [2] [ng/mL] | IC50, pseudovirus neutralization [3] [ng/mL] | IC80, pseudovirus neutralization [3] [ng/mL] | IC50, pseudovirus neutralization [4] [ng/mL] | IC80, pseudovirus neutralization [4] [ng/mL] | IC50, pseudovirus neutralization [5] [ng/mL] | IC80, pseudovirus neutralization [5] [ng/mL] | IC50, pseudovirus neutralization [6] [ng/mL] | IC80, pseudovirus neutralization [6] [ng/mL] | IC50, pseudovirus neutralization [7] [nM] | IC80, pseudovirus neutralization [7] [nM] | IC50, pseudovirus neutralization [8] [nM] | IC80, pseudovirus neutralization [8] [nM]
MX1071 (other) chain 1: EIVLTQSPGTLSLSPGETATLSCRASQSFSSDLAWYQQKPGQAPRLLIYGASSRATGIPDRFSGSGSGTDFTLTISRLEPADFAVYYCQQYGSSPPVTFGGGTKVEIKGGSSGQTVVTQEPSFSVSPGGTVTLTCGLSSGSVSTAYFPSWYQQTPGQAPRTLIYGTNTRSSGVPDRFSGSILGNKAALTITGAQADDESDYYCVLYMGRGIVVFGGGTKLTVLGGGGSGGSGSGGGGSASGSGQVQLVESGGGVVQPGRSLRLSCAASGFTLSSYGMHWVRQAPGKGLEWVAVISYDGSNKYYVDSVKGRFTISRDNSKNTLYLQMNSLRAEDTAVYYCRWAYWELLPDYYYGMDVWGQGTTVTVSSGGSSGEVQLVESGGGLIQPGGSLRLSCAASGVIVSYNYMNWVRQAPGKGLEWVSVIYSGGSTFYADSVRGRFTISRDNSKNTLYLQMNSLRAEDTAVYYCARDLGPAGAFDIWGLGTMVTVSSASGGSGDKTHTCPPCPAPELLGGPSVFLFPPKPKDTLMISRTPEVTCVVVDVSHEDPEVKFNWYVDGVEVHNAKTKPREEQYNSYVVSVLTVLHQDWLNGKEYKCKVSNKALPAPIEKTISKAKGQPREPQVYTLPPCRDELTKNQVSLWCLVKGFYPSDIAVEWESNGQPENNYKTTPPVLDSDGSFFKKLTVDKSRWQQGNVFSCSVLHEALHSHYTQKSLSLSPG chain 2: EIVLTQSPGTLSLSPGETATLSCRASQSFSSDLAWYQQKPGQAPRLLIYGASSRATGIPDRFSGSGSGTDFTLTISRLEPADFAVYYCQQYGSSPPVTFGGGTKVEIKGGSSGDTVMTQSPLSLPVTPGEPASISCRSSQSLLNSNGYNYLDWYVQKPGQSPQLLIYLGSNRASGVPDRFSGSGSGTDFTLKISRVEAEDVGVYYCMQPLQTPLFTFGPGTKVEIKGGGGSGGSGSGGGGSASGSGQVTLRESGPALVKPTQTLTLTCTFSGFSLSTRGVCVSWIRQPPGKALEWLAFIDWDDDKYYNTSLKTRLTISKDTSKNQVVLTMTNVHPVDTATYYCARISSHHGSSWCTTFDYWGQGALVTVSAGGSSGEVQLVESGGGLIQPGGSLRLSCAASGVIVSYNYMNWVRQAPGKGLEWVSVIYSGGSTFYADSVRGRFTISRDNSKNTLYLQMNSLRAEDTAVYYCARDLGPAGAFDIWGLGTMVTVSSASGGSGDKTHTCPPCPAPELLGGPSVFLFPPKPKDTLMISRTPEVTCVVVDVSHEDPEVKFNWYVDGVEVHNAKTKPREEQYNSYVVSVLTVLHQDWLNGKEYKCKVSNKALPAPIEKTISKAKGQPREPQVCTLPPSRDELTKNQVSLSCAVKGFYPSDIAVEWESNGQPENNYKTTPPVLDSDGSFFLVSKLTVDKSRWQQGNVFSCSVLHEALHSHYTQKSLSLSPG | 5.77 | 15.4 | 4.38 | 33.2 | 16.6 | 52.7 | 3.1 | 7.72 | 3.81 | 10.1 | 9.19 | 47.1 |  |  |  | 
MX1072 (other) chain 1: EIVLTQSPGTLSLSPGETATLSCRASQSFSSDLAWYQQKPGQAPRLLIYGASSRATGIPDRFSGSGSGTDFTLTISRLEPADFAVYYCQQYGSSPPVTFGGGTKVEIKGGSSGQTVVTQEPSFSVSPGGTVTLTCGLSSGSVSTAYFPSWYQQTPGQAPRTLIYGTNTRSSGVPDRFSGSILGNKAALTITGAQADDESDYYCVLYMGRGIVVFGGGTKLTVLGGGGSGGSGSGGGGSASGSGQVQLVESGGGVVQPGRSLRLSCAASGFTLSSYGMHWVRQAPGKGLEWVAVISYDGSNKYYVDSVKGRFTISRDNSKNTLYLQMNSLRAEDTAVYYCRWAYWELLPDYYYGMDVWGQGTTVTVSSGGSSGEVQLVESGGGLIQPGGSLRLSCAASGVIVSYNYMNWVRQAPGKGLEWVSVIYSGGSTFYADSVRGRFTISRDNSKNTLYLQMNSLRAEDTAVYYCARDLGPAGAFDIWGLGTMVTVSSASGGSGDKTHTCPPCPAPELLGGPSVFLFPPKPKDTLMISRTPEVTCVVVDVSHEDPEVKFNWYVDGVEVHNAKTKPREEQYNSYVVSVLTVLHQDWLNGKEYKCKVSNKALPAPIEKTISKAKGQPREPQVYTLPPCRDELTKNQVSLWCLVKGFYPSDIAVEWESNGQPENNYKTTPPVLDSDGSFFKKLTVDKSRWQQGNVFSCSVLHEALHSHYTQKSLSLSPG chain 2: DTVMTQSPLSLPVTPGEPASISCRSSQSLLNSNGYNYLDWYVQKPGQSPQLLIYLGSNRASGVPDRFSGSGSGTDFTLKISRVEAEDVGVYYCMQPLQTPLFTFGPGTKVEIKGGSSGEIVLTQSPGTLSLSPGETATLSCRASQSFSSDLAWYQQKPGQAPRLLIYGASSRATGIPDRFSGSGSGTDFTLTISRLEPADFAVYYCQQYGSSPPVTFGGGTKVEIKGGGGSGGSGSGGGGSASGSGEVQLVESGGGLIQPGGSLRLSCAASGVIVSYNYMNWVRQAPGKGLEWVSVIYSGGSTFYADSVRGRFTISRDNSKNTLYLQMNSLRAEDTAVYYCARDLGPAGAFDIWGLGTMVTVSSGGSSGQVTLRESGPALVKPTQTLTLTCTFSGFSLSTRGVCVSWIRQPPGKALEWLAFIDWDDDKYYNTSLKTRLTISKDTSKNQVVLTMTNVHPVDTATYYCARISSHHGSSWCTTFDYWGQGALVTVSAASGGSGDKTHTCPPCPAPELLGGPSVFLFPPKPKDTLMISRTPEVTCVVVDVSHEDPEVKFNWYVDGVEVHNAKTKPREEQYNSYVVSVLTVLHQDWLNGKEYKCKVSNKALPAPIEKTISKAKGQPREPQVCTLPPSRDELTKNQVSLSCAVKGFYPSDIAVEWESNGQPENNYKTTPPVLDSDGSFFLVSKLTVDKSRWQQGNVFSCSVLHEALHSHYTQKSLSLSPG | 4.46 | 17.8 | 6.32 | 16.7 | 15.4 | 25.9 | 16.1 | 33.8 | 8.48 | 22.1 | 24.8 | 107 |  |  |  | 
MX828 (bispecific antibody) QTVVTQEPSFSVSPGGTVTLTCGLSSGSVSTAYFPSWYQQTPGQAPRTLIYGTNTRSSGVPDRFSGSILGNKAALTITGAQADDESDYYCVLYMGRGIVVFGGGTKLTVLGGSSGEIVLTQSPGTLSLSPGERATLSCRASQSVSSSYLAWYQQKPGQAPRLLIYSASSRATGIPDRFSGSGSGTDFTLTISRLEPEDFAVYFCQQYVGLTGWTFGQGTKVEIKGGGGSGGSGSGGGGSASGSGQMQLVQSGPEVKKPGTSVKVSCKASGFTFTSSAVQWVRQRQRLEWIGWIVVGSGNTNYAQKFQERVTITRDMSTSTAYMELSSLRSEDTAVYYCAAPNCSNVVCYDGFDIWGQGTMVTVSSGGSSGQVQLVESGGGVVQPGRSLRLSCAASGFTLSSYGMHWVRQAPGKGLEWVAVISYDGSNKYYVDSVKGRFTISRDNSKNTLYLQMNSLRAEDTAVYYCRWAYWELLPDYYYGMDVWGQGTTVTVSSASGGSGDKTHTCPPCPAPELLGGPSVFLFPPKPKDTLMISRTPEVTCVVVDVSHEDPEVKFNWYVDGVEVHNAKTKPREEQYNSYVVSVLTVLHQDWLNGKEYKCKVSNKALPAPIEKTISKAKGQPREPQVYTLPPSRDELTKNQVSLTCLVKGFYPSDIAVEWESNGQPENNYKTTPPVLDSDGSFFKKLTVDKSRWQQGNVFSCSVLHEALHSHYTQKSLSLSPG |  |  |  |  |  |  |  |  |  |  |  |  | 4.3 | 19.5 | 1.75 | 6.23
MX1078 (other) chain 1: DTVMTQSPLSLPVTPGEPASISCRSSQSLLNSNGYNYLDWYVQKPGQSPQLLIYLGSNRASGVPDRFSGSGSGTDFTLKISRVEAEDVGVYYCMQPLQTPLFTFGPGTKVEIKGGSSGEIVLTQSPGTLSLSPGETATLSCRASQSFSSDLAWYQQKPGQAPRLLIYGASSRATGIPDRFSGSGSGTDFTLTISRLEPADFAVYYCQQYGSSPPVTFGGGTKVEIKGGGGSGGSGSGGGGSASGSGEVQLVESGGGLIQPGGSLRLSCAASGVIVSYNYMNWVRQAPGKGLEWVSVIYSGGSTFYADSVRGRFTISRDNSKNTLYLQMNSLRAEDTAVYYCARDLGPAGAFDIWGLGTMVTVSSGGSSGQVTLRESGPALVKPTQTLTLTCTFSGFSLSTRGVCVSWIRQPPGKALEWLAFIDWDDDKYYNTSLKTRLTISKDTSKNQVVLTMTNVHPVDTATYYCARISSHHGSSWCTTFDYWGQGALVTVSAASGGSGDKTHTCPPCPAPELLGGPSVFLFPPKPKDTLMISRTPEVTCVVVDVSHEDPEVKFNWYVDGVEVHNAKTKPREEQYNSYVVSVLTVLHQDWLNGKEYKCKVSNKALPAPIEKTISKAKGQPREPQVYTLPPCRDELTKNQVSLWCLVKGFYPSDIAVEWESNGQPENNYKTTPPVLDSDGSFFKKLTVDKSRWQQGNVFSCSVLHEALHSHYTQKSLSLSPG chain 2: DTVMTQSPLSLPVTPGEPASISCRSSQSLLNSNGYNYLDWYVQKPGQSPQLLIYLGSNRASGVPDRFSGSGSGTDFTLKISRVEAEDVGVYYCMQPLQTPLFTFGPGTKVEIKGGSSGQTVVTQEPSFSVSPGGTVTLTCGLSSGSVSTAYFPSWYQQTPGQAPRTLIYGTNTRSSGVPDRFSGSILGNKAALTITGAQADDESDYYCVLYMGRGIVVFGGGTKLTVLGGGGSGGSGSGGGGSASGSGQVQLVESGGGVVQPGRSLRLSCAASGFTLSSYGMHWVRQAPGKGLEWVAVISYDGSNKYYVDSVKGRFTISRDNSKNTLYLQMNSLRAEDTAVYYCRWAYWELLPDYYYGMDVWGQGTTVTVSSGGSSGQVTLRESGPALVKPTQTLTLTCTFSGFSLSTRGVCVSWIRQPPGKALEWLAFIDWDDDKYYNTSLKTRLTISKDTSKNQVVLTMTNVHPVDTATYYCARISSHHGSSWCTTFDYWGQGALVTVSAASGGSGDKTHTCPPCPAPELLGGPSVFLFPPKPKDTLMISRTPEVTCVVVDVSHEDPEVKFNWYVDGVEVHNAKTKPREEQYNSYVVSVLTVLHQDWLNGKEYKCKVSNKALPAPIEKTISKAKGQPREPQVCTLPPSRDELTKNQVSLSCAVKGFYPSDIAVEWESNGQPENNYKTTPPVLDSDGSFFLVSKLTVDKSRWQQGNVFSCSVLHEALHSHYTQKSLSLSPG | 3.72 | 17.9 | 33.4 | 210 | 48.4 | 91.8 | 5.91 | 22.2 | 45.4 | 97.3 | 11.9 | 25.9 |  |  |  | 
